Measured values from several laboratories, pooled; numbers as filed in NIAID ChemDB.

All rows: tests in culture; species: Mycobacterium tuberculosis

ECn is the concentration giving n% inhibition of infection, replication or growth.

SMILES | changes | tested at | read by | strain or isolate | endpoint | cells | result
CCCCCCCCCCCCNC(CC(=O)OCC)[C@H]1O[C@@H]2OC(C)(C)O[C@@H]2[C@H]1OC |  |  |  | H37Ra | MIC |  | >25 µg/mL
CN=C(N=Nc1c(O)[nH]c2ccccc12)SCC(=O)c1ccc(Br)cc1 |  |  |  | H37Rv | EC50 |  | <12 µg/mL
CCCCCCCCC(OC)C(=O)O |  |  |  | H37Rv | MIC |  | 200 µM
CCCCCCCCCCCCNC(CC(=O)OCC)[C@H]1O[C@@H]2OC(C)(C)O[C@@H]2[C@H]1OCc1ccccc1 |  |  |  | H37Rv | MIC |  | 50 µg/mL
O=NNc1cncc(Cl)n1 |  |  | BACTEC | H37Rv | MIC bound |  | >12.5 µg/mL
O=C(/C=C/c1ccc(F)cc1)c1cc2c(cc1O)OC1(CCCCC1)CC2=O |  |  | agar | H37Rv | MIC |  | 12.5 µg/mL
C=CCn1c(-c2ccc(OC)cc2)cs/c1=N\N=C1/C(=O)Nc2ccccc21 |  |  |  | H37Rv | EC50 |  | <12 µg/mL
CN[C@@H]1[C@H](O[C@H]2[C@H](O[C@H]3[C@H](O)[C@@H](O)[C@H](N=C(N)N)[C@@H](O)[C@@H]3N=C(N)N)O[C@@H](C)[C@]2(O)C=O)O[C@@H](CO)[C@H](O)[C@H]1O |  |  |  | Isolate 12 | MIC |  | 64 µg/mL
CC1S/C(=N\N=C2/C(=O)Nc3ccccc32)N(c2ccc(Br)cc2)C1=O |  |  |  | H37Rv | MIC |  | >12.5 µg/mL
S=P(NNc1ccccc1)(NNc1ccccc1)c1ccc(Cl)cc1 |  |  | resazurin | H37Rv | MIC bound |  | >6.25 µg/mL
C[C@@H](O)[C@H]1C(=O)N2C(C(=O)O)=C(S[C@@H]3CN[C@H](C(=O)N(C)C)C3)[C@H](C)[C@H]12 |  |  | resazurin | H37Rv | MIC |  | 8 µg/mL
CN[C@@H]1[C@H](O[C@H]2[C@H](O[C@H]3[C@H](O)[C@@H](O)[C@H](N=C(N)N)[C@@H](O)[C@@H]3N=C(N)N)O[C@@H](C)[C@]2(O)C=O)O[C@@H](CO)[C@H](O)[C@H]1O |  |  |  | H37Rv | MIC |  | 5 µg/mL
CCCCSc1nc(C(N)=O)cnc1C(C)(C)C |  |  |  | H37Rv | MIC |  | >12.5 µg/mL
CC1COc2c(N3CCN(C)CC3)c(F)cc3c(=O)c(C(=O)O)cn1c23 |  |  |  | Erdman | MIC |  | 1.25 µg/mL
CCCCCCCCCCCCCCCCNC(CC(=O)OCC)[C@H]1O[C@@H]2OC(C)(C)O[C@@H]2[C@H]1OC |  |  |  | H37Ra | MIC |  | 12.5 µg/mL
CCc1cc(C(N)=S)ccn1 |  |  |  | H37Rv | MIC |  | 20 µg/mL
C[C@@H]1CN(c2c(F)c(N)c3c(=O)c(C(=O)O)cn(C4CC4)c3c2F)C[C@H](C)N1 |  |  |  | Isolate 12 | MIC |  | 0.13 µg/mL
CC(=O)c1ccc(-c2cc(C(F)(F)F)nc3c(C(F)(F)F)cccc23)cc1 |  |  |  |  | MIC |  | >128 µM
CCSc1nc(C(N)=O)cnc1C(C)(C)C |  | 12.5 µg/mL |  | H37Rv | inhibition |  | <90%
CC1(C)S[C@@H]2[C@H](NC(=O)COc3ccccc3)C(=O)N2[C@H]1C(=O)O |  |  | resazurin | H37Rv | MIC |  | 512 µg/mL
CCOC(=O)CCCNC(CC(=O)OCC)[C@H]1O[C@@H]2OC(C)(C)O[C@@H]2[C@H]1OCc1ccccc1 |  |  |  | H37Rv | MIC |  | 50 µg/mL
COC(=O)C1=C(C)N(c2ccc(OC)cc2)C(C)=C(C(=O)OC)C1c1ccc(OC)c(O)c1 |  |  |  | H37Rv | MIC |  | >6.25 µg/mL
Nc1o[nH]c(=O)c1C1CCCCC1 |  |  | BACTEC | H37Rv | MIC bound |  | >12.5 µg/mL
COc1ccc2nc3cc(Cl)ccc3c(Nc3cc(CN4CCCC4)c(O)c(CN4CCCC4)c3)c2n1 | Rv2466c W28S |  | resazurin | 53.3 | MIC |  | 5–10 µg/mL
CCOC(=O)CCCNC(CC(=O)OCC)[C@H]1O[C@@H]2OC(C)(C)O[C@@H]2[C@H]1OC |  |  |  | H37Ra | MIC |  | >25 µg/mL
CN[C@@H]1[C@H](O)[C@H](NC)[C@H]2O[C@@]3(O)[C@H](NC(=O)c4ccco4)C[C@@H](C)C[C@H]3O[C@@H]2[C@H]1O |  |  | broth dilution | H37Rv | MIC |  | 100 µg/mL
NCCCCCCNC(=O)c1csc(Nc2ccc(Cl)cc2)n1 |  | 6.25 µg/mL | resazurin |  | inhibition |  | 21%
c1cc2c[n+](c1)CCCCCCCCCCCCCCc1ccc[n+](c1)CCCCCCCCCC2 |  |  |  | H37Rv | MIC |  | 8 µg/mL
FC(F)(F)c1cc(-n2ccnc2)c2cccc(C(F)(F)F)c2n1 |  |  |  |  | MIC |  | >128 µM
Cc1nc(Nc2ccc(Cl)c(Cl)c2)sc1C(/C=C/c1ccc2c(c1)OCO2)=N/Nc1ccc([N+](=O)[O-])cc1[N+](=O)[O-] |  |  | resazurin | H37Rv | MIC bound |  | <6.25 µg/mL
COc1cccc(/C=C/C(=O)c2cc3c(cc2O)OC2(CCN(C(=O)OC(C)(C)C)CC2)CC3=O)c1 |  |  | agar | H37Rv | MIC |  | 25 µg/mL
NNC(=O)c1ccncc1 | mmpL3 V681I |  | resazurin | DR1 | MIC |  | 0.025 µg/mL
CC1COc2c(N3CCN(C)CC3)c(F)cc3c(=O)c(C(=O)O)cn1c23 |  |  |  | H37Rv | MIC |  | 0.63 µg/mL
CCCSc1nc(C(N)=S)cnc1CCC |  | 12.5 µg/mL |  | H37Rv | inhibition |  | <90%
CN[C@@H]1[C@H](O)[C@H](NC)[C@H]2O[C@@]3(O)C(=O)C[C@@H](C)O[C@H]3O[C@@H]2[C@H]1O |  |  | broth dilution | H37Rv-HL-15 | MIC |  | >200 µg/mL
O=C(NN1C(=O)CCSC1c1ccccc1[N+](=O)[O-])c1ccncc1 |  |  | broth dilution / agar | H37Rv | MIC |  | 0.56 µM
COC(=O)Nc1nc2ccc(SC)cc2c(=O)[nH]1 |  |  | BACTEC | H37Rv | MIC bound |  | >12.5 µg/mL
O=[N+]([O-])c1cn2c(n1)OC[C@@H](OCc1ccc(C(F)(F)F)nc1)C2 |  |  | low oxygen | H37Rv | MIC90 |  | 0.53 µM
COc1ccc(C2C(C(=O)Nc3ccccc3Cl)=C(C)NC(C)=C2C(=O)Nc2ccccc2Cl)cc1 |  |  |  | H37Rv | MIC |  | >12.5 µg/mL
CCCCNC(CC(=O)OCC)[C@H]1O[C@@H]2OC(C)(C)O[C@@H]2[C@H]1OCc1ccccc1 |  |  |  | H37Rv | MIC |  | 50 µg/mL
c1cc2c[n+](c1)CCCCCCCCCCCCCc1ccc[n+](c1)CCCCCCCCCCCCC2 |  |  |  | H37Rv | MIC |  | 8 µg/mL
CCOC(=O)CC(N)[C@H]1O[C@@H]2OC(C)(C)O[C@@H]2[C@H]1OC |  |  |  | H37Ra | MIC |  | >25 µg/mL
NNC(=O)c1ccncc1 |  |  |  | ATCC35801 | MIC |  | 0.06 µg/mL
FC(F)(F)c1cc(NCc2cccnc2)c2cccc(C(F)(F)F)c2n1 |  |  |  |  | MIC |  | >128 µM
CN[C@@H]1[C@H](O)[C@H](NC)[C@H]2O[C@@]3(O)[C@H](NC(=O)CC(C)C)C[C@@H](C)C[C@H]3O[C@@H]2[C@H]1O |  |  | broth dilution | H37Rv | MIC |  | 200 µg/mL
CCCCCCCC/C=C/CCCCCC1CCCC(C)N1 |  |  |  | ETA-R | MIC |  | 6.3 µg/mL
CCN(CC)CCCC(C)Nc1ccnc2cc(Cl)ccc12 |  |  | resazurin | H37Rv | MIC |  | >20 µg/mL
C=CCNC(=S)N=Nc1c(O)[nH]c2ccccc12 |  | 12 µg/mL |  | H37Rv | inhibition |  | 24%
CSc1c(C)n([O-])c2cc(Cl)c(Cl)cc2[n+]1=O |  |  |  | H37Rv | MIC | VERO | 0.78 µg/mL
CC(C)Cc1ncc(C(N)=S)nc1Sc1ccccc1 |  |  |  | H37Rv | MIC |  | >6.25 µg/mL
Cc1cc(C(=O)N/N=C/c2ccccc2O)c2cc(Br)ccc2n1 |  | 12.5 µg/mL | BACTEC | H37Rv | inhibition |  | 43%
CCCCc1ncc(C(N)=O)nc1SCCC |  | 12.5 µg/mL |  | H37Rv | inhibition |  | 62%
O=S(=O)([O-])c1cc(Cl)cc(Cc2cc(Cl)cc(S(=O)(=O)[O-])c2O)c1O.[Na+].[Na+] |  |  | BACTEC | H37Rv | MIC bound |  | >12.5 µg/mL
C=CCN1CCN(/N=C/c2c3c(O)c4c(O)c(C)c5c(c4c2O)C(=O)[C@@](C)(O/C=C/[C@H](OC)[C@@H](C)[C@@H](OC(C)=O)[C@H](C)[C@H](O)[C@H](C)[C@@H](O)[C@@H](C)/C=C/C=C(/C)C(=O)N3)O5)CC1 |  |  |  | H37Rv | MIC |  | 0.02 µg/mL
COc1ccc(/C=C/C(=O)c2cc3c(cc2O)OC2(CCCCC2)CC3=O)cc1 |  |  | agar | H37Rv | MIC |  | >25 µg/mL
CSc1nc(C(N)=O)cnc1C(C)(C)C |  | 12.5 µg/mL |  | H37Rv | inhibition |  | <90%
CC1=C(C(=O)Nc2cccc([N+](=O)[O-])c2)C(c2ccccc2)C(C(=O)Nc2cccc([N+](=O)[O-])c2)=C(C)N1 |  |  |  | H37Rv | MIC |  | >6.25 µg/mL
NNC(=O)[C@H](O)[C@@H](O)[C@@H](O)[C@H](O)CO |  |  | resazurin | H37Rv | MIC bound |  | >6.25 µg/mL
CCOC(=O)CC(N)[C@H]1O[C@@H]2OC(C)(C)O[C@@H]2[C@H]1OCc1ccccc1 |  |  |  | H37Rv | MIC |  | >100 µg/mL
CCCc1ncc(C(N)=O)nc1SC |  |  |  | H37Rv | MIC |  | >12.5 µg/mL
c1cc2c[n+](c1)CCCCCCCCCCCCCCc1ccc[n+](c1)CCCCCCCCCCCCCC2 |  |  |  | H37Rv | MIC |  | 8 µg/mL
CCCCCCCCCCCC(=O)N[C@@H]1C[C@@H](C)C[C@H]2O[C@@H]3[C@@H](O)[C@H](NC)[C@H](O)[C@H](NC)[C@H]3O[C@@]12O |  |  | broth dilution | H37Rv | MIC |  | 12.5 µg/mL
CN(C)C(=O)Nc1c([N+](=O)[O-])cc(C(F)(F)F)cc1[N+](=O)[O-] |  | 12.5 µg/mL | BACTEC | H37Rv | inhibition |  | 93%
O=C(NCCCCCNCc1cccc(Cl)c1)c1csc(Nc2ccc(Cl)cc2)n1 |  | 6.25 µg/mL | resazurin |  | inhibition |  | 99%
Cc1c(C)c2ccc3oc4ccccc4c3c2oc1=O |  | 12.5 µg/mL | BACTEC | H37Rv | inhibition |  | -8%
COc1ccccc1NC(=O)C1=C(C)NC(C)=C(C(=O)Nc2ccccc2OC)C1c1ccc(N(C)C)cc1 |  |  |  | H37Rv | MIC |  | <12.5 µg/mL
C1=CC(=NN=C(c2ccccc2)c2ccccc2)C=CC1=NN=C(c1ccccc1)c1ccccc1 |  | 12.5 µg/mL | BACTEC | H37Rv | inhibition |  | -13%
CN=C(N=Nc1c(O)[nH]c2ccccc12)SCC(=O)c1ccccc1 |  | 12 µg/mL |  | H37Rv | inhibition |  | 92%
CCN(CC)Cc1c(-c2ccccc2)oc(-c2ccccc2)c1CN(CC)CC |  |  | BACTEC | H37Rv | MIC | VERO | 6.25 µg/mL
COC(=O)C1=C(C)N(c2ccccc2)C(C)=C(C(=O)OC)C1c1ccc(SC)cc1 |  |  |  | H37Rv | MIC |  | >6.25 µg/mL
COc1cc(OC)c2c(=O)cc(-c3ccncc3)oc2c1 |  | 12.5 µg/mL | BACTEC | H37Rv | inhibition |  | 10%
CC1S/C(=N/N=C2\C(=O)Nc3ccc(Br)cc32)N(c2ccc(Cl)cc2)C1=O |  | 12 µg/mL |  | H37Rv | inhibition |  | 82%
Cc1cc2c(cc1N)C(C)C1(CCC(=O)N2Cc2ccccc2)OCCO1 |  |  | BACTEC | H37Rv | MIC bound |  | >12.5 µg/mL
NNC(=O)c1ccncc1 |  |  |  | H37Rv | MIC |  | 2.51 µM
O=C(CCCC(=O)NNC(=S)Nc1cccc2ccccc12)NNC(=S)Nc1cccc2ccccc12 |  | 12.5 µg/mL | BACTEC | H37Rv | inhibition |  | 16%
CCSc1nc(C(N)=S)cnc1CC(C)C |  | 12.5 µg/mL |  | H37Rv | inhibition |  | <90%
CC(/C(=N/NC(=O)C(N)=O)c1c(Cl)ccc(Cl)c1O)C1(O)C(=O)Nc2ccccc21 |  |  | BACTEC | H37Rv | MIC |  | ≥12.5 µg/mL
C=CCN=C(N=Nc1c(O)[nH]c2ccccc12)SCC(=O)c1ccc(Br)cc1 |  |  |  | H37Rv | EC50 |  | <12 µg/mL
O=C1c2ccc(O)cc2C(=O)c2c1ccc(O)c2O |  |  | BACTEC | H37Rv | MIC bound |  | >12.5 µg/mL
COc1ccc(Nc2nc(C(=O)NCCCCCN)cs2)cc1 |  | 6.25 µM | resazurin |  | inhibition |  | 44%
Cc1nn(C(=O)c2ccncc2)c(C)c1N=Nc1ccccc1[N+](=O)[O-] |  |  | BACTEC | H37Rv | MIC bound |  | >12.5 µg/mL
CCN1C(=O)C(C)S/C1=N/N=C1\C(=O)Nc2ccc(Br)cc21 |  | 12 µg/mL |  | H37Rv | inhibition |  | 2%

Blank or dashed fields: not listed here. Percent inhibition refers to the dose given; in toxicity tests it is the harm to the cells. Two numbers with a dash give a range or band. MIC bound: limit read from a one-dose screen. MIC50, MIC90 and the like: level of inhibition, or share of isolates inhibited. Conditions beyond the fields shown may differ between rows.